The text below walks through data of ChEMBL document CHEMBL1133246, “Phenyl sulfur mustard derivatives of distamycin A” (2000).

A word on the IC50: it is the point on the concentration scale where inhibition reaches its midpoint. Low values mean higher potency, high ones lower potency.

The test has as its system L1210. Nature of the test: In vitro cytotoxicity against L1210 murine leukemia cells.
Regarding `Cn1cc(NC(=O)c2cc(NC(=O)c3cc(NC(=O)c4ccc(SCCCl)cc4)cn3C)cn2C)cc1C(=O)NCCC(=N)N`, half-maximal inhibition (IC50) was put at 0.0206 µM. As for `Cn1cc(NC(=O)c2cc(NC(=O)c3cc(NC(=O)c4ccc([S+]([O-])CCCl)cc4)cn3C)cn2C)cc1C(=O)NCCC(=N)N` (configuration not stated), the figure is above 0.6 µM.

`CCN(CCCl)c1ccc(C(=O)Nc2cc(C(=O)Nc3cc(C(=O)Nc4cc(C(=O)NCCC(=N)N)n(C)c4)n(C)c3)n(C)c2)cc1` showed an IC50 of 0.06 µM. As for `Cn1cc(NC(=O)c2cc(NC(=O)c3cc(NC(=O)/C=C/c4ccc(SCCCl)cc4)cn3C)cn2C)cc1C(=O)NCCC(=N)N`, the figure is 0.0009 µM; as for `Cn1cc(NC(=O)c2cc(NC(=O)c3cc(NC(=O)c4ccc(NCCCl)cc4)cn3C)cn2C)cc1C(=O)NCCC(=N)N`, above 0.6 µM; as for `Cn1cc(NC(=O)c2cc(NC(=O)c3cc(NC(=O)/C=C/c4ccc([S+]([O-])CCCl)cc4)cn3C)cn2C)cc1C(=O)NCCC(=N)N` (configuration not stated), above 0.6 µM.

Molecule `CCN(CCCl)c1ccc(/C=C/C(=O)Nc2cc(C(=O)Nc3cc(C(=O)Nc4cc(C(=O)NCCC(=N)N)n(C)c4)n(C)c3)n(C)c2)cc1` came in with an IC50 of 0.0029 µM.
